A mixed list of measured activities; the numbers were collected in NIAID ChemDB.

Shared fields: tests in culture; species: Mycobacterium tuberculosis

Two numbers with a dash give a range or band.

SMILES	mutations	method	tested at	strain	endpoint	value
CN1C(NC(=O)c2ccc(Cl)nc2)=NS(=O)(=O)c2cc(Cl)ccc21	-	-	-	Clinical isolates drug-resistant	MIC	>16 µg/mL
NS(=O)(=O)c1ccc(CN2CCCC[C@H]2[C@@H](O)c2cc(C(F)(F)F)nc3c(C(F)(F)F)cccc23)cc1	-	-	-	-	MIC	15 µM
O=C(NCCN1CCOCC1)c1cn2c(ccc3sc4ccccc4c(=O)c32)n1	-	BACTEC	12.5 µg/mL	H37Rv	inhibition	0%
CC(C)N1C(NNC(=O)c2cnccn2)=NS(=O)(=O)c2ccccc21	-	-	-	Clinical isolates drug-sensitive	MIC	>16 µg/mL
C[C@H]1CC[C@]2(NC1)O[C@H]1C[C@H]3[C@@H]4CC[C@H]5C[C@@H](O)CC[C@]5(C)[C@H]4CC[C@]3(C)[C@H]1[C@@H]2C	-	BACTEC	12.5 µg/mL	H37Rv	inhibition	35%
Nc1nc(F)c(F)c2c1ncn2[C@@H]1O[C@H](CO)[C@@H](O)[C@H]1O	-	-	-	SRICK1::ADOK	MIC	10–100 µg/mL
O=Cc1ccc(Sc2nnc(N3CCN(c4nc(N5CCN(c6ccccc6)CC5)c5ccccc5n4)CC3)o2)cc1	-	BACTEC / fluorescence	6.25 µg/mL	H37Rv	inhibition	0%
c1ccc(N=C2SC3=Nc4cccc5cccc(c45)N3C2=Nc2ccccc2)cc1	-	BACTEC	12.5 µg/mL	H37Rv	inhibition	-10%
CN1C(NNC(=O)c2cnccn2)=NS(=O)(=O)c2ccc(Cl)cc21	-	-	-	H37Rv (ATCC 27294)	MIC	>16 µg/mL
CO[C@H]1/C=C/O[C@@]2(C)Oc3c(C)c(O)c4c(O)c(c(/C=N/N5CCN(C6CCCC6)CC5)c(O)c4c3C2=O)NC(=O)/C(C)=C\C=C\[C@H](C)[C@H](O)[C@@H](C)[C@@H](O)[C@@H](C)[C@H](OC(C)=O)[C@@H]1C	-	-	-	1024	MIC	0.16 µg/mL
Cc1cc(NCCN(C(C)C)C(C)C)nc(Nc2nc3cc(Cl)c(Cl)cc3[nH]2)n1	-	BACTEC	-	H37Rv	MIC bound	>6.25 µg/mL
Nc1ccc2c(N3CCOCC3)cc(N3CCOCC3)nc2n1	-	BACTEC	-	H37Rv	EC50	>6.25 µg/mL
Cc1ccn2nc(S(=O)(=O)Nc3c(Br)ccc4cccnc34)nc2n1	INH RIF resistant	visual reading	-	P887	MIC50	0.5 µM
NC[C@@H]1O[C@H](O[C@H]2[C@@H](O)[C@H](O[C@@H]3[C@@H](O)[C@H](N)C[C@H](N)[C@H]3O[C@H]3O[C@H](CN)[C@@H](O)[C@H](O)[C@H]3N)O[C@@H]2CO)[C@H](N)[C@@H](O)[C@@H]1O	-	-	-	H37Rv	MBC	32 µg/mL
CCOc1ccc2ccccc2c1C(=O)N[C@@H]1C(=O)N2[C@@H]1SC(C)(C)[C@@H]2C(=O)O	-	-	-	Isolate 5	MIC	>16 µg/mL
O[C@@H](c1cc(C(F)(F)F)nc2c(C(F)(F)F)cccc12)[C@@H]1CCCCN1Cc1ccccc1	-	-	-	-	MIC	7 µM
Nc1nc(CCC(=O)O)cs1	-	BACTEC	-	H37Rv	MIC bound	>6.25 µg/mL
c1cc2c(N3CCOCC3)cc(N3CCOCC3)nc2nc1N1CCOCC1	-	BACTEC	-	H37Rv	EC50	>6.25 µg/mL
NCC[C@H](O)C(=O)N[C@@H]1C[C@H](N)[C@@H](O[C@H]2O[C@H](CN)[C@@H](O)[C@H](O)[C@H]2O)[C@H](O)[C@H]1O[C@H]1O[C@H](CO)[C@@H](O)[C@H](N)[C@H]1O	-	-	-	H37Rv	MBC	4 µg/mL
CCN(CC)c1ccc(N=C2C=C(C(=O)Nc3ccc(C(=O)O)cc3)C(=O)c3ccccc32)c(C)c1	-	BACTEC	-	H37Rv	MIC bound	>12.5 µg/mL
O=C(O)[C@H]1/C(=C/CO)O[C@@H]2CC(=O)N21	-	-	-	Isolate 5	MIC	>16 µg/mL
Cc1nc2nc(S(=O)(=O)Nc3c(Br)ccc4cccnc34)nn2c2c1CCC2	INH RIF resistant	visual reading	-	M23	MIC50	2 µM
NS(=O)(=O)c1ccc(NC2=CC(=O)C(=O)c3ccc(S(=O)(=O)O)cc32)cc1	-	BACTEC	-	H37Rv	MIC bound	>12.5 µg/mL
Cc1cc2c(ncn2[C@@H]2O[C@H](CO)[C@@H](O)[C@H]2O)c(C)n1	-	-	-	SRICK1::ADOK	MIC	10–100 µg/mL
Clc1cc(N2CCOCC2)nc2nc(N3CCOCC3)ccc12	-	BACTEC	6.25 µg/mL	H37Rv	inhibition	0%
FC(F)(F)c1cc(NCc2ccccn2)c2cccc(C(F)(F)F)c2n1	-	-	-	-	MIC	30 µM
CCn1cc(C(=O)O)c(=O)c2cc(F)c(N3CCN(C)CC3)cc21	-	-	-	58 isolates	MIC90	8 µg/mL
O=C(NNC1=NS(=O)(=O)c2ccccc2N1c1ccccc1)c1cccnc1	-	-	-	Clinical isolates drug-resistant	MIC	>16 µg/mL
COC(=O)c1ccc(/C=C(\c2ccc([N+](=O)[O-])o2)S(=O)(=O)c2ccc(NC(C)=O)cc2)o1	-	BACTEC	-	H37Rv	MIC bound	>12.5 µg/mL
CN1C(NNC(=O)c2cnccn2)=NS(=O)(=O)c2ccccc21	-	-	-	H37Rv (ATCC 27294)	MIC	0.5 µg/mL
Cc1noc(NS(=O)(=O)c2ccc(NCc3c4ccccc4nc4cc(Cl)ccc34)cc2)c1C	-	BACTEC	12.5 µg/mL	H37Rv	inhibition	96%
COc1ccc([C@H]2[C@@H]3CSCN3[C@@]3(C(=O)Nc4ccc(Cl)cc43)[C@@]23Cc2ccccc2C3=O)cc1	-	agar	-	H37Rv	MIC99	49.7 µM
N#Cc1ccc(Sc2nnc(N3CCN(c4nc(N5CCN(c6ccccc6)CC5)c5ccccc5n4)CC3)o2)cc1	-	agar / visual reading	-	H37Rv	MIC	12.5 µg/mL
Cc1cc(C)c(S(=O)(=O)O)c(C)c1Nc1ccc(Nc2c(C)cc(C)c(S(=O)(=O)O)c2C)c2c1C(=O)c1ccccc1C2=O	-	BACTEC	12.5 µg/mL	H37Rv	inhibition	-5%
O=C(NNc1ccccc1)N1CCN(c2nc(N3CCN(c4ccccc4)CC3)c3ccccc3n2)CC1	-	agar / visual reading	100 µg/mL	H37Rv	inhibition	90%
COC(=O)c1nccnc1N	-	BACTEC	-	H37Rv	MIC	≥12.5 µg/mL
CN[C@@H]1[C@H](O[C@H]2[C@H](O[C@H]3[C@H](O)[C@@H](O)[C@H](N=C(N)N)[C@@H](O)[C@@H]3N=C(N)N)O[C@@H](C)[C@]2(O)C=O)O[C@@H](CO)[C@H](O)[C@H]1O	-	-	-	MTB12 (PZA-R)	MIC	0.3 µg/mL
Nc1ncc(Cl)c2c1ncn2[C@@H]1O[C@H](CO)[C@@H](O)[C@H]1O	-	-	-	SRICK1::ADOK	MIC	>100 µg/mL
O=[n+]1c2ccc(Cl)cc2n([O-])c2ccc(Cl)cc21	-	BACTEC	12.5 µg/mL	H37Rv	inhibition	94%
CO[C@H]1/C=C/O[C@@]2(C)Oc3c(C)c(O)c4c(=O)c(c5oc6cc(N7CCN(CC(C)C)CC7)cc(=O)c6nc5c4c3=C2O)NC(=O)/C(C)=C\C=C\[C@H](C)[C@H](O)[C@@H](C)[C@@H](O)[C@@H](C)[C@H](OC(C)=O)[C@@H]1C	-	-	-	31 (rifampin-resistant)	MBC	0.1 µg/mL
CC(=O)Nc1ccc(/C=N/NC(N)=S)cc1I	-	-	-	-	MIC	<6.25 µg/mL
CC1(C)[C@H](C(=O)O)N2C(=O)C[C@H]2S1(=O)=O	-	-	-	H37Ra	MIC	>16 µg/mL
O=C1c2ccccc2C(=O)N1C1Cc2nc3ccccc3n2C1=O	-	BACTEC	12.8 µg/mL	H37Rv	inhibition	6%
O=C1Nc2ccccc2[C@]12N1CSC[C@H]1[C@H](c1cccs1)[C@]21Cc2ccccc2C1=O	-	agar	-	H37Rv	MIC99	56.2 µM
CCc1oc2ccccc2c1C(=O)c1ccc(O)cc1	-	BACTEC	-	H37Rv	MIC bound	>12.5 µg/mL
O=C1Nc2ccc(Cl)cc2[C@]12N1CSC[C@H]1[C@H](c1ccccc1Cl)[C@]21Cc2ccccc2C1=O	-	agar	-	H37Rv	MIC99	12.3 µM
CC[C@@H](CO)NCCN[C@@H](CC)CO	-	-	-	K137	MIC	128 µg/mL
c1ccc(Sc2nnc(N3CCN(c4nc(N5CCN(c6ccccc6)CC5)c5ccccc5n4)CC3)o2)cc1	-	agar / visual reading	-	H37Rv	MIC	50 µg/mL
Cc1ccccc1[C@H]1[C@@H]2CSCN2[C@@]2(C(=O)Nc3ccc(Cl)cc32)[C@@]12Cc1ccccc1C2=O	-	agar	-	H37Rv	MIC99	25.7 µM
Cc1ccc(Sc2nnc(N3CCN(c4nc(N5CCN(c6ccccc6)CC5)c5ccccc5n4)CC3)o2)cc1	-	agar / visual reading	6.25 µg/mL	H37Rv	inhibition	99%
COCCCn1c2c([n+](Cc3ccc([N+](=O)[O-])cc3)c1C)C(=O)c1ccccc1C2=O	-	BACTEC	-	H37Rv	MIC	1.56 µg/mL
CC(=O)Nc1ccc(/C=N/NC(N)=S)cc1F	-	-	-	Ciprofloxacin-resistant	MIC	≤0.1 µg/mL
CN1CCN(/N=C/c2cc(C(F)(F)F)nc3c(C(F)(F)F)cccc23)CC1	-	-	-	-	MIC	16 µM
Cc1ccc(Nc2nc(NS(=O)(=O)c3cc(C)c(Cl)cc3S)n(C)n2)cc1	-	resazurin	6.25 µg/mL	H37Rv	inhibition	-17%
O=[N+]([O-])c1ccccc1Sc1nnc(N2CCN(c3nc(N4CCN(c5ccccc5)CC4)c4ccccc4n3)CC2)o1	-	agar / visual reading	-	H37Rv	MIC	12.5 µg/mL
O=C(NNC1=NS(=O)(=O)c2ccccc2N1c1ccccc1)c1cnccn1	-	-	-	Clinical isolates drug-resistant	MIC	8–16 µg/mL
CC(=O)c1ccccc1NNC(=O)N1CCN(c2nc(N3CCN(c4ccccc4)CC3)c3ccccc3n2)CC1	-	agar / visual reading	-	H37Rv	MIC	6.25 µg/mL
COc1cc([C@H]2OC(=O)C3C2C(=O)O[C@@H]3c2ccc(O)c(OC)c2)ccc1O	-	BACTEC	12.5 µg/mL	H37Rv	inhibition	5%
O=C(NNC1=NS(=O)(=O)c2ccccc2N1c1ccccc1)c1ccncc1	-	-	-	Clinical isolates drug-resistant	MIC	>16 µg/mL
CO[C@@]1(NC(=O)Cc2cccs2)C(=O)N2C(C(=O)O)=C(COC(N)=O)CS[C@@H]21	-	-	-	Isolate 4	MIC	>16 µg/mL
COc1c(N2CCNC(C)C2)c(F)cc2c(=O)c(C(=O)O)cn(C3CC3)c12	-	-	-	25 strains	MIC50	0.1 µg/mL
CC1CN(/C=N/N=C/c2ccco2)CCN1/C=N/N=C/c1ccco1	-	BACTEC	-	H37Rv	MIC bound	>12.5 µg/mL
C#C[C@@]12O[C@]1(CO)[C@@H]1[C@@H](O)C[C@H]3C(C)(C)CCC[C@]3(C)[C@H]1CC2=O	-	-	-	Sensitive strains	MIC	50 µg/mL
FC(F)(F)c1cc(N2CCOCC2)c2cccc(C(F)(F)F)c2n1	-	-	-	-	MIC	>128 µM
CO[C@H]1/C=C/O[C@@]2(C)Oc3c(C)c(O)c4c(O)c(c5c(c4c3C2=O)NC2(CCN(CC(C)C)CC2)N=5)=NC(=O)/C(C)=C\C=C\[C@H](C)[C@H](O)[C@@H](C)[C@@H](O)[C@@H](C)[C@H](OC(C)=O)[C@@H]1C	-	-	-	27 (rifampin-resistant)	MBC	0.4 µg/mL
COc1ccc(CSC(=S)Nc2ccc(N=Nc3ccccc3)cc2)cc1	-	BACTEC	-	H37Rv	MIC bound	≤128 µg/mL
C/C(=N\NC(=S)N(C)C)c1ccccn1.[Cu][Br]	-	-	-	H37Rv	MIC90	12.5 µM
NC[C@@H]1O[C@H](O[C@H]2[C@@H](O)[C@H](O[C@@H]3[C@@H](O)[C@H](N)C[C@H](N)[C@H]3O[C@H]3O[C@H](CO)[C@@H](O)[C@H](O)[C@H]3N)O[C@@H]2CO)[C@H](N)[C@@H](O)[C@@H]1O	-	-	-	MTB24 (S)	MIC	1.5 µg/mL
CO[C@H]1/C=C/O[C@@]2(C)Oc3c(C)c(O)c4c(O)c(c(/C=N/N5CCN(C6CCCC6)CC5)c(O)c4c3C2=O)NC(=O)/C(C)=C\C=C\[C@H](C)[C@H](O)[C@@H](C)[C@@H](O)[C@@H](C)[C@H](O)[C@@H]1C	-	-	-	H37Rv	MIC	0.06 µg/mL
Cc1ccc(S(=O)(=O)NNC(=O)CCn2[nH]c(=O)c(Cl)c(Cl)c2=O)cc1	-	BACTEC	12.5 µg/mL	H37Rv	inhibition	7%
CC1COc2c(N3CCN(C)CC3)c(F)cc3c(=O)c(C(=O)O)cn1c23	-	-	-	25 strains	MIC50	0.78 µg/mL
CC(=O)c1ccc(-c2cc(C(F)(F)F)nc3c(C(F)(F)F)cccc23)cc1	-	-	-	-	MIC	>128 µM
Nc1ccc2c(Cl)cc(N3CCCCC3)nc2n1	-	BACTEC	6.25 µg/mL	H37Rv	inhibition	38%

7 of the rows above, restated:

SMILES	mutations	method	tested at	strain	endpoint	value
CN1C(NNC(=O)c2cnccn2)=NS(=O)(=O)c2ccccc21	-	-	-	H37Rv (ATCC 27294)	MIC	0.5 µg/mL
O=C(NNc1ccccc1)N1CCN(c2nc(N3CCN(c4ccccc4)CC3)c3ccccc3n2)CC1	-	agar / visual reading	100 µg/mL	H37Rv	inhibition	90%
C[C@H]1CC[C@]2(NC1)O[C@H]1C[C@H]3[C@@H]4CC[C@H]5C[C@@H](O)CC[C@]5(C)[C@H]4CC[C@]3(C)[C@H]1[C@@H]2C	-	BACTEC	12.5 µg/mL	H37Rv	inhibition	35%
Nc1ncc(Cl)c2c1ncn2[C@@H]1O[C@H](CO)[C@@H](O)[C@H]1O	-	-	-	SRICK1::ADOK	MIC	>100 µg/mL
O=C1c2ccccc2C(=O)N1C1Cc2nc3ccccc3n2C1=O	-	BACTEC	12.8 µg/mL	H37Rv	inhibition	6%
CC1CN(/C=N/N=C/c2ccco2)CCN1/C=N/N=C/c1ccco1	-	BACTEC	-	H37Rv	MIC bound	>12.5 µg/mL
COc1ccc([C@H]2[C@@H]3CSCN3[C@@]3(C(=O)Nc4ccc(Cl)cc43)[C@@]23Cc2ccccc2C3=O)cc1	-	agar	-	H37Rv	MIC99	49.7 µM

An empty or dashed field is not shown. MIC bound comes from a single tested concentration. ECn: concentration that inhibits the pathogen or its effect by n%. Lines come from different laboratories, so protocols vary. Percent inhibition refers to the dose given; in toxicity tests it is the harm to the cells. MIC50, MIC90 and the like: level of inhibition, or share of isolates inhibited.